A mixed list of measured activities; the numbers were collected in NIAID ChemDB.

All rows: cytotoxicity tests; cells: HeLa; read by: MTT; measure: CC50

Conditions beyond the fields shown may differ between rows. CCn: concentration that lowers growth or viability of the cells by n%.

smiles	result
CCOC(=O)/C=C/c1cc(-c2ccccc2)cnc1Cl	28 µM
COc1ccc2c(c1)CSSC2	48.9 µM
CCOC(=O)[C@@]1(C)CC[C@]2(C)CC[C@]3(C)C(=CC(=O)[C@@H]4[C@@]5(C)CC/C(=N\OCc6ccc(F)cc6)C(C)(C)[C@@H]5CC[C@]43C)[C@@H]2C1	29.49 µM
CCC(C)Sc1n[nH]c(-c2ccc(C)cc2)n1	19.92 µg/mL
COc1ccccc1NC(=O)c1ccccc1C(O)c1ccc([N+](=O)[O-])cc1	>100 µM
N#CC(N)=NCCN=C(N)NC(N)=[NH+]CCCCCCCCCC[NH+]=C(N)NC(N)=NCCN.[Cl-].[Cl-]	262 µM
FC(F)(F)c1ccc(-c2nc(=S)[nH][nH]2)cc1	25.92 µg/mL
O=C1c2ccccc2C(=O)c2c1ccc1[nH]c([C@H]3O[C@H](CO)[C@H](O)[C@H]3O)nc21	12.32 µM
CCn1c2c(c(=O)c3cc(C(C)C)ccc31)Cc1ccccc1-2	>4 µg/mL
O=C1c2ccccc2C(=O)c2c1ccc1[nH]c(C[C@@H]3O[C@H](CO)[C@@H](O)[C@H]3O)nc21	8.23 µM
C#CCSc1n[nH]c(-c2ccc([N+](=O)[O-])c(C(F)(F)F)c2)n1	6.08 µg/mL
NC(N)=NC(N)=Nc1ccccc1	8470 µM
C1=CCC2(CC1)COC(c1ccco1)OC2	>500 µg/mL
O=C1c2ccccc2C(=O)c2c1ccc1[nH]c(CNCCCN3[C@@H](CO)[C@@H](O)[C@H](O)[C@@H]3CO)nc21	80.39 µM
COc1ccc(C2=C3c4cc(OC)c(OC)cc4C=CN3C3C(=O)Oc4cc(OS(=O)(=O)O)c(OC)cc4C23)cc1O	274 µM
CCOC(=O)[C@@]1(C)CC[C@]2(C)CC[C@]3(C)C(=CC(=O)[C@@H]4[C@@]5(C)CC/C(=N\OCc6cc(C)nn6C)C(C)(C)[C@@H]5CC[C@]43C)[C@@H]2C1	14.51 µM
Clc1ccc2c(c1)CSSC2	69.6 µM
COc1ccccc1C(=O)Nc1ccccc1C(O)c1ccc([N+](=O)[O-])cc1	>100 µM
C#CCSc1n[nH]c(-c2cccc(C(F)(F)F)c2)n1	13.78 µg/mL
CCOC(=O)[C@@]1(C)CC[C@]2(C)CC[C@]3(C)C(=CC(=O)[C@@H]4[C@@]5(C)CC/C(=N\OCc6cc(C)cc(C)c6)C(C)(C)[C@@H]5CC[C@]43C)[C@@H]2C1	42.24 µM
Cc1cc(C=O)cc(C)c1Oc1cc(Nc2ccc(C#N)cc2)nc2ccccc12	3.9 µM
Cc1cc(NCCCCCCCCNc2cc(C)nc3cc(N(C)C)ccc23)c2ccc(N(C)C)cc2n1	>500 µg/mL
COC(C)(C)/C=C/C[C@](C)(O)C1[C@H](O)C[C@@]2(C)[C@@H]3CC=C4[C@@H](C[C@H](O)[C@@H](O)C4(C)C)[C@]3(C)C(=O)C[C@]12C	>50 µM
CCOC(=O)[C@@]1(C)CC[C@]2(C)CC[C@]3(C)C(=CC(=O)[C@@H]4[C@@]5(C)CC/C(=N\OCc6cccc(Br)c6)C(C)(C)[C@@H]5CC[C@]43C)[C@@H]2C1	>100 µM
COC(=O)c1ccc2c(c1)CSSC2	143.6 µM
O=C1Oc2cc(O)c(O)cc2C2C(c3ccc(O)c(O)c3)=C3c4cc(O)c(O)cc4C=CN3C12	5.7 µM
CC(=O)/C=C/c1cc(-c2ccccc2)cnc1Cl	104 µM
CCOC(=O)[C@@]1(C)CC[C@]2(C)CC[C@]3(C)C(=CC(=O)[C@@H]4[C@@]5(C)CC/C(=N\OCc6cnc(Cl)s6)C(C)(C)[C@@H]5CC[C@]43C)[C@@H]2C1	15.36 µM
O=C1c2ccccc2C(=O)c2c1ccc1[nH]c(CNCCCCCCCCN3[C@@H](CO)[C@@H](O)[C@H](O)[C@@H]3CO)nc21	6.8 µM
CCOC(=O)/C=C/c1cc(CC)cnc1Cl	9 µM
CCOC(=O)[C@@]1(C)CC[C@]2(C)CC[C@]3(C)C(=CC(=O)[C@@H]4[C@@]5(C)CC/C(=N\OCc6ccc(-c7ccccc7)cc6)C(C)(C)[C@@H]5CC[C@]43C)[C@@H]2C1	38.29 µM
COC(=O)c1ccc(C(O)c2ccccc2NC(=O)c2ccccc2OC)cc1	>100 µM
CCOC(=O)[C@@]1(C)CC[C@]2(C)CC[C@]3(C)C(=CC(=O)[C@@H]4[C@@]5(C)CC/C(=N\OCc6ccccc6)C(C)(C)[C@@H]5CC[C@]43C)[C@@H]2C1	24.65 µM
CCCc1cnc(Cl)c(/C=C/C(=O)OCC)c1	31 µM
CO[C@H]1C=C2C(C[C@H](O)[C@@H](O)C2(C)C)[C@]2(C)C(=O)C[C@]3(C)C([C@@](C)(O)C(=O)CCC(C)(C)OC(C)=O)[C@H](O)C[C@@]3(C)[C@H]12	5.1 µM
C#CCS(=O)(=O)c1nc(-c2ccc([N+](=O)[O-])c(C(F)(F)F)c2)n[nH]1	8.5 µg/mL
CCOC(=O)c1ccc(OC(=O)CCCCCN=C(N)N)cc1.COS(=O)(=O)O	120 µg/mL
N#CC(N)=NCCN=C(N)NC(N)=[NH+]CCCCCCCCCCCC[NH+]=C(N)NC(N)=NCCN.[Cl-].[Cl-]	244 µM
Cc1cccc(-c2nc(=S)[nH][nH]2)c1	21.11 µg/mL

For reference, 5 entries again:

smiles	result
COc1ccc(C2=C3c4cc(OC)c(OC)cc4C=CN3C3C(=O)Oc4cc(OS(=O)(=O)O)c(OC)cc4C23)cc1O	274 µM
CCOC(=O)[C@@]1(C)CC[C@]2(C)CC[C@]3(C)C(=CC(=O)[C@@H]4[C@@]5(C)CC/C(=N\OCc6ccccc6)C(C)(C)[C@@H]5CC[C@]43C)[C@@H]2C1	24.65 µM
C#CCSc1n[nH]c(-c2cccc(C(F)(F)F)c2)n1	13.78 µg/mL
CC(=O)/C=C/c1cc(-c2ccccc2)cnc1Cl	104 µM
C#CCS(=O)(=O)c1nc(-c2ccc([N+](=O)[O-])c(C(F)(F)F)c2)n[nH]1	8.5 µg/mL